Data as given in PubChem BioAssay AID1224833 (University of Georgia, 2016).

Screen: 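Host factors restraining rotavirus as candidate antiviral genes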 (primary screen)
Cells: monkey MA104 kidney cells
Reagent: siRNA pool against human genes, 50 nM
Timing: 48 h knock-down before infection; read 24 h after infection
Challenge: infection with rotavirus strain RV3 two days after transfection; infectious dose for this stage not given
Measured: 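Rotavirus antigen per well by fluorescent immunoassay, normalised to non-targeting control wells on each plate and given as a standard z-score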
Reading the numbers: z-score vs non-targeting control: higher = more rotavirus replication than with non-targeting control
Hit rule: In these data the active calls have z-score vs non-targeting control at about -1 or lower, or at about 1 or higher
Meaning of the calls: active = z-score beyond 1 either way; inactive = z-score within 1 of zero
In all, the deposit lists about 12,000 reagents; below is an unselected part. About 5,600 of all reagents (46%) were called active. 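Active calls cover z-scores past 1 in both directions, so they include lowered as well as raised rotavirus replication.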

gene | z-score vs non-targeting control | Outcome
AHI1 | -0.292 | inactive
TAS2R9 | 1.27 | active
SLC51A | 0.239 | inactive
IFIT2 | -0.561 | inactive
MRPS18A | -0.575 | inactive
LRRCC1 | 3.02 | active
TYW3 | -1.7 | active
ZBTB9 | -1.62 | active
GLRX2 | -0.764 | inactive
CARMIL2 | -0.831 | inactive
CCDC17 | -1.42 | active
IL12B | -0.704 | inactive
DNLZ | 0.889 | inactive
TPH2 | -0.513 | inactive
GPR18 | 2.55 | active
CPNE7 | -1.2 | active
SLC35F4 | 2.26 | active
UAP1 | -0.559 | inactive
APOBEC4 | 1.87 | active
TMEM208 | -0.366 | inactive
TMEM183A | 0.391 | inactive
KDELR1 | -0.404 | inactive
OR4F6 | -0.606 | inactive
SUCLG1 | -0.863 | inactive
NRIP2 | 0.63 | inactive
FANCA | 0.588 | inactive
DEPP1 | -1.24 | active
REPS2 | -1.75 | active
ZNF619 | -0.391 | inactive
KLRC2 | -0.316 | inactive
SSPN | -1.94 | active
ZNF497 | -0.191 | inactive
CUX1 | -1.12 | active
HACD4 | -1.12 | active
TMEM38B | -0.659 | inactive
TRAPPC1 | -0.712 | inactive
LRCH3 | -1.37 | active
SNCG | -1.42 | active
RPS3 | -0.0161 | inactive
TBC1D3 | 0.74 | inactive
DHDH | -0.62 | inactive
DCAF16 | -1.29 | active
ADAMTSL5 | 2.13 | active
SPACA9 | 0.415 | inactive
RCBTB2 | 2.24 | active
SNAPC2 | -0.721 | inactive
OR3A2 | -2.22 | active
JUN | 1.17 | active
NIPBL | -0.205 | inactive
MRPL44 | -1.91 | active
REG3G | -0.651 | inactive
CPA2 | 0.841 | inactive
TSTD2 | -1.37 | active
BDKRB2 | -1.2 | active
GOLGA8B | -0.882 | inactive
NAGA | -1.14 | active
KIAA1143 | -0.0501 | inactive
STAU1 | -0.86 | inactive
SLC25A47 | -0.353 | inactive
UCP3 | -1.19 | active
PISD | -0.558 | inactive
ZBED4 | 1.93 | active
ZNF207 | -0.842 | inactive
RFTN1 | -0.935 | inactive
PLEKHF1 | -0.467 | inactive
TAAR8 | 0.977 | inactive
SETD2 | -0.726 | inactive
CDH20 | -0.589 | inactive
TAS2R39 | -2.02 | active
AP1B1 | -0.652 | inactive
OCIAD1 | 0.234 | inactive
GOLGB1 | 0.413 | inactive
CTSS | 2.09 | active
GPCPD1 | -1.98 | active
RNASE1 | -1.59 | active
CGN | -1.04 | active
DYNLT4 | -1.37 | active
ERAP1 | 1.63 | active
NOSTRIN | -0.0887 | inactive
PECAM1 | -0.832 | inactive
ADAMTS4 | 0.988 | inactive
TTC8 | 0.64 | inactive
KLRB1 | -1.2 | active
BBS7 | 1.27 | active
NR1H2 | -1.25 | active
CPQ | 0.711 | inactive
CCL21 | 1.07 | active
TINAGL1 | -3.57 | active
NOMO3 | -0.575 | inactive
OR5AC2 | -0.839 | inactive

Ordered by “z-score vs non-targeting control” (descending): 11 of the entries above
gene | z-score vs non-targeting control | Outcome
ADAMTSL5 | 2.13 | active
TBC1D3 | 0.74 | inactive
SPACA9 | 0.415 | inactive
RPS3 | -0.0161 | inactive
DHDH | -0.62 | inactive
TMEM38B | -0.659 | inactive
TRAPPC1 | -0.712 | inactive
HACD4 | -1.12 | active
DCAF16 | -1.29 | active
LRCH3 | -1.37 | active
SNCG | -1.42 | active

Continued.
gene | z-score vs non-targeting control | Outcome
PLEKHG3 | -1.68 | active
EFTUD2 | 0.983 | inactive
LIX1 | 0.389 | inactive
DEPTOR | -0.27 | inactive
HNRNPH3 | -2.76 | active
CNTNAP1 | -1.27 | active
SPIRE2 | -0.673 | inactive
MTCL1 | 0.218 | inactive
LECT2 | 0.749 | inactive
THBS4 | -1.12 | active
KRTAP4-2 | 1.52 | active
TRAPPC14 | 2.82 | active
ARR3 | -0.234 | inactive
CSRNP2 | -0.545 | inactive
ATP5F1A | 2.23 | active
ZNF296 | 2.03 | active
NPY5R | -0.759 | inactive
CRK | 0.744 | inactive
ACSF3 | -2.81 | active
CYP2F1 | -0.478 | inactive
AGBL4 | -0.713 | inactive
OR5B21 | 1.06 | active
TM4SF20 | -0.899 | inactive
AKIRIN1 | 1.45 | active
CD93 | 1.41 | active
C14orf39 | 0.224 | inactive
ZNF79 | -2.23 | active
BRAT1 | -1.96 | active
OR2G6 | 0.668 | inactive
PES1 | 0.584 | inactive
OR2B11 | -0.384 | inactive
CITED1 | -1.24 | active
PDCD1LG2 | -1.48 | active
CLEC18A | -1.43 | active
H1-0 | -1.88 | active
AMZ1 | 1.09 | active
FUOM | -0.991 | inactive
ATP6V1B1 | 0.832 | inactive
ANKRD55 | 0.982 | inactive
CNBD1 | 0.677 | inactive
COL6A1 | -1.9 | active
MLLT3 | 0.0791 | inactive
TBX21 | -1.04 | active
MS4A5 | -0.165 | inactive
CEP170B | 2.37 | active
ZNF629 | -1.2 | active
CNNM2 | -0.975 | inactive
AP1S3 | 0.506 | inactive
STAM2 | -0.79 | inactive
ACER3 | 0.508 | inactive
